Measurements: paper PMC12192683

Amino acid sequences for entries named in this document (tags omitted). Residues count along the entry.
UniProt P98158, 26-4660: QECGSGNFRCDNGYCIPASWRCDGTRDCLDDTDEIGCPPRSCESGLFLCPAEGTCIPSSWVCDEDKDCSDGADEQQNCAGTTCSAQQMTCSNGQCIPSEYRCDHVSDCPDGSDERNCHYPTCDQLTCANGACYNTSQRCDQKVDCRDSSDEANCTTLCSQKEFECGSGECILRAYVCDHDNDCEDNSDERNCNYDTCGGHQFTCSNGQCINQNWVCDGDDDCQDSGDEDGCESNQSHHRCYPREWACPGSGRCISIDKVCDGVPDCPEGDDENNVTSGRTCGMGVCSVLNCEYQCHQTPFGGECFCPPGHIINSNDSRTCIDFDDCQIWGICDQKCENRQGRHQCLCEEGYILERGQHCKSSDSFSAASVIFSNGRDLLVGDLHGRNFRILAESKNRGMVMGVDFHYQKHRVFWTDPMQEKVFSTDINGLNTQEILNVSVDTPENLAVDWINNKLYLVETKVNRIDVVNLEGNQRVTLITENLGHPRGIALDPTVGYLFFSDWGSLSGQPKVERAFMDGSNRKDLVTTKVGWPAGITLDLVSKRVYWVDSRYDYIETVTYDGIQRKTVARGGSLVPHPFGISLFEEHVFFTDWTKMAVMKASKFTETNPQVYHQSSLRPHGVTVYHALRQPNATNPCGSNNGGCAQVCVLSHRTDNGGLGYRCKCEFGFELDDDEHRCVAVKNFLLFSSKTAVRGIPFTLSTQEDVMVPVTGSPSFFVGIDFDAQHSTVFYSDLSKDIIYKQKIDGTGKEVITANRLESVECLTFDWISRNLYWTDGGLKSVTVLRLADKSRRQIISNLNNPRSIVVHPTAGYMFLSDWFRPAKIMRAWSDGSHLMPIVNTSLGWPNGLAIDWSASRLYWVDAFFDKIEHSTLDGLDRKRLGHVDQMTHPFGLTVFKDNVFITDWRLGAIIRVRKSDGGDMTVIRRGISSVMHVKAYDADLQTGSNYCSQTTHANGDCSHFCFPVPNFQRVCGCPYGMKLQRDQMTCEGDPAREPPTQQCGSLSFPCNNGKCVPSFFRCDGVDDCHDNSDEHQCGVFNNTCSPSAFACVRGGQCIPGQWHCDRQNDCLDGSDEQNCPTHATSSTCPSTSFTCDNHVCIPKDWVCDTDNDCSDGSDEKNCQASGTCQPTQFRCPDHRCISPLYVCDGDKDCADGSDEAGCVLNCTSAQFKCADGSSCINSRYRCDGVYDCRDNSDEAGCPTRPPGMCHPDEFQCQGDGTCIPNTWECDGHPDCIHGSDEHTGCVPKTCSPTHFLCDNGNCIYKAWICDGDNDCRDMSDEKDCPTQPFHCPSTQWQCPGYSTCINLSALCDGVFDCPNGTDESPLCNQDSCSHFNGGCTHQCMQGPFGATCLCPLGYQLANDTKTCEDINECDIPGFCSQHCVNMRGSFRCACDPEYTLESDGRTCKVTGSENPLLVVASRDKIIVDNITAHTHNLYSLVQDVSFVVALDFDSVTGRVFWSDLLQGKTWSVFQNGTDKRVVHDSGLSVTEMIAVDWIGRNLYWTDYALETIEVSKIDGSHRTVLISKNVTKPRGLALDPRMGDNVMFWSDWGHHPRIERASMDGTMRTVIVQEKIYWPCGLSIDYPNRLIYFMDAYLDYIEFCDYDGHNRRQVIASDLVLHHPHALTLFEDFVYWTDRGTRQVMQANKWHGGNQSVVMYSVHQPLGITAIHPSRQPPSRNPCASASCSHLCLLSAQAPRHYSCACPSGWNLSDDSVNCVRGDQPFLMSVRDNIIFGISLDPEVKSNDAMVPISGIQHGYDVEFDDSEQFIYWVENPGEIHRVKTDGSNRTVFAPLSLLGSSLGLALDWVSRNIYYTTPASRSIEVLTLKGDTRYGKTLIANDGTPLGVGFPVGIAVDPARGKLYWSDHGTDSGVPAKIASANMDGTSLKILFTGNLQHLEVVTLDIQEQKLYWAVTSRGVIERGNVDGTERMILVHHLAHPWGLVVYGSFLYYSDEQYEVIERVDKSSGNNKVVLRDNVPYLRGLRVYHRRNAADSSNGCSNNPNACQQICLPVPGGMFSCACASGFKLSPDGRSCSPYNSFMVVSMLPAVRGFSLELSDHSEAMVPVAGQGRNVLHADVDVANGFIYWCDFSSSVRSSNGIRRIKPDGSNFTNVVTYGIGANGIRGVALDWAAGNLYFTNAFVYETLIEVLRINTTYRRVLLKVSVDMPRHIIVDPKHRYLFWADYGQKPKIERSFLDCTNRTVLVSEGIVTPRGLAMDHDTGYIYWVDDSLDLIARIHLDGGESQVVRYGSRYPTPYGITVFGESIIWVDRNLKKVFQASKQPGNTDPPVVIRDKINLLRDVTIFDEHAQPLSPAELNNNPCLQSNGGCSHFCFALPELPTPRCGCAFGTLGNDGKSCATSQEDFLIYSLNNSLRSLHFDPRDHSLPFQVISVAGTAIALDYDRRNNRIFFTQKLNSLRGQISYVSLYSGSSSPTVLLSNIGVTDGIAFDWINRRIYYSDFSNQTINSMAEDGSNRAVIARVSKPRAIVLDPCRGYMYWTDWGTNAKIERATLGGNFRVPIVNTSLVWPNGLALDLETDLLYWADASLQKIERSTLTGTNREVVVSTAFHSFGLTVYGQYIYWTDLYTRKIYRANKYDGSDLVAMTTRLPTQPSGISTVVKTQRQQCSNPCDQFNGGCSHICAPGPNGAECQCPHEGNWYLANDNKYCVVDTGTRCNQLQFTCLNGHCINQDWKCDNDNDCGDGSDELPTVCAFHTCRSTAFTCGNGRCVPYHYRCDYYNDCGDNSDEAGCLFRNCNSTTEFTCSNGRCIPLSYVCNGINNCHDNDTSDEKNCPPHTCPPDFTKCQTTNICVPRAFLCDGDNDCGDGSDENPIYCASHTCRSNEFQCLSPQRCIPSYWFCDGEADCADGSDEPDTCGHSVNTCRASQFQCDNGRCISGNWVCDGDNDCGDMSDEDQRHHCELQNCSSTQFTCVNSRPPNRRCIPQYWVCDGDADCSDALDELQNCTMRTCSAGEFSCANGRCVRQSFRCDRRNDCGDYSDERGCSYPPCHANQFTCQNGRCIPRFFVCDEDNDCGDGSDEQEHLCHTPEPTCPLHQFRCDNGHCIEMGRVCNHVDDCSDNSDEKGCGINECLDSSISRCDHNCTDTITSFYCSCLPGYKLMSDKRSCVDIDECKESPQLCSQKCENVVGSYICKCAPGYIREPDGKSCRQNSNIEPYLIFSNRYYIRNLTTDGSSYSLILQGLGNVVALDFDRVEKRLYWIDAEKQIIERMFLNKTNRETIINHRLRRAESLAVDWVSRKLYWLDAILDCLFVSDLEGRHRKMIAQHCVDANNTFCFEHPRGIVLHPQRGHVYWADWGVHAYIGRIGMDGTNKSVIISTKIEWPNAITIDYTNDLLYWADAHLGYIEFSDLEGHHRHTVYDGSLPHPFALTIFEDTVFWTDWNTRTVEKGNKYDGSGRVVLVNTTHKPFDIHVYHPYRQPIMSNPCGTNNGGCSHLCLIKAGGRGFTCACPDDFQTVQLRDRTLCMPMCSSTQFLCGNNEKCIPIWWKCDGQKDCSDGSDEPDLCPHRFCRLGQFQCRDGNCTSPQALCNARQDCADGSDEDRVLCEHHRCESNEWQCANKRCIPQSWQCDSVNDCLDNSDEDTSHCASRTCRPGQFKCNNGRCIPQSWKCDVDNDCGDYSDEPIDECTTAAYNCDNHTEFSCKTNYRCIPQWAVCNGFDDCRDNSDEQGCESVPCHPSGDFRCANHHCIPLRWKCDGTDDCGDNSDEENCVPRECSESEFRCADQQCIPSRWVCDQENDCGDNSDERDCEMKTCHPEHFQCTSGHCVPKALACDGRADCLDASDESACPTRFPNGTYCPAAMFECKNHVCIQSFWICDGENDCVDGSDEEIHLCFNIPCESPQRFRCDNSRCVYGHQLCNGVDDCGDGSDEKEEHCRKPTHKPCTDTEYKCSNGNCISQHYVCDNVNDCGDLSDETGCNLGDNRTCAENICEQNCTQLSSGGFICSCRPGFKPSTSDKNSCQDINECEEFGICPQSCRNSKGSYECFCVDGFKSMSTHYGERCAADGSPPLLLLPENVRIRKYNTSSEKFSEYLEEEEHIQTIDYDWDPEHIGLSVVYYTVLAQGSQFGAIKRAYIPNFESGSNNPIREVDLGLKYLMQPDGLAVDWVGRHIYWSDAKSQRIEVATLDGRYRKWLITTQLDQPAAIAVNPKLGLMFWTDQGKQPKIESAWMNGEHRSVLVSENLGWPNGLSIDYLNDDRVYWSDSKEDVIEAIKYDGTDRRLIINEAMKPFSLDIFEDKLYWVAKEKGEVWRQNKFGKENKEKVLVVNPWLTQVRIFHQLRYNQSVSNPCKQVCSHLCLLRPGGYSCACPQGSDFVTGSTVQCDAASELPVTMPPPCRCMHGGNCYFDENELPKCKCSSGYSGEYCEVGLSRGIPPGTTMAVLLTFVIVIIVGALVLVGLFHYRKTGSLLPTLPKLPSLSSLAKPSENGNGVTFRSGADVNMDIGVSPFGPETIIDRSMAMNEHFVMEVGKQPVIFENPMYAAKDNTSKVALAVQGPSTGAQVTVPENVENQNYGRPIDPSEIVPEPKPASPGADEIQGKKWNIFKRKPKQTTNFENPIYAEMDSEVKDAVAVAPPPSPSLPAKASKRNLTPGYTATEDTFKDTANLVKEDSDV

Molecular target: LRP2/gp330 purified from rat kidneys (rat) (UniProt P98158)
Test: SPR; Biacore 3000; receptor amine-coupled to CM5 chip; ligand flowed in HBS-P (0.01 M HEPES pH 7.4, 0.15 M NaCl, 0.005% P20) with 1 mM CaCl2, 10 ul/min, 25 C; kinetic fit to a 1:1 Langmuir model

Which Kd does the source give for “SARS-CoV-2 spike protein S1 subunit (Val16-Arg685) fused to the Fc region of mouse IgG1 (from UniProt P0DTC2 16-685) (Fc fusion)” here?
Its Kd is 40 nM.

What about the koff of the same substance?
Its koff is 0.00036 s⁻¹.

What about the kon of the same substance?
Its kon is 9400 M⁻¹ s⁻¹.
